{"source": "paper PMC9170159", "about": "(Proceedings of the National Academy of Sciences of the …, 2022)", "binders": {"B1": {"name": "NCI-CoV-8A2 VHH (monomeric, six-histidine tag) (VHH)", "VHH": "AVQLVDSGGGSVQAGGSLRLSCAASGYTYSICTMGWYRQAPGEGLEWVSGINADGSNTHYTDSVKGRFTISRDNAKKTLYLQMNSLKPEDTAIYYCAAHGTYDKYAPCGGFAGTYTYWGQGTQVTVSS"}, "B2": {"name": "1B5 VHH displayed on phage (VHH)", "VHH": "DVQLVESGGGSVQAGGSLRLSCTGSRYTYSTYCMGWFRQAPGKEEEAVAIINSGGGEPYYGDSVKGRFTISQDRAKNTVYLQMDGLQPDDTAIYYCVAADSHNSRCYLGRSYVNYWGQGTQVTVSS"}}, "key": {"[1]": {"molecular_target": "T1, SARS-CoV-2 (Wuhan-Hu-1) spike receptor-binding domain, His-tagged (SARS-CoV-2, UniProt P0DTC2 319-541)", "assay": "BLI; Octet; […] monomeric VHH at 12.5 nM; […]", "conditions": "both partners purified"}, "[2]": {"molecular_target": "T1, SARS-CoV-2 (Wuhan-Hu-1) spike …", "assay": "BLI; Octet; […] monomeric VHH at 50 nM; […]", "conditions": "both partners purified"}, "[3]": {"molecular_target": "T1, SARS-CoV-2 (Wuhan-Hu-1) spike …", "assay": "BLI; Octet; […] monomeric VHH at 25 nM; […]", "conditions": "both partners purified"}, "[4]": {"molecular_target": "T1, SARS-CoV-2 (Wuhan-Hu-1) spike …", "assay": "BLI; Octet; […] monomeric VHH at 100 nM; […]", "conditions": "both partners purified"}, "[5]": {"molecular_target": "S1 subunit of the SARS-CoV spike protein (SARS-CoV (2003), strain not named, UniProt P59594)", "assay": "ELISA; monoclonal phage ELISA; […] absorbance at 450 nm", "conditions": "one partner purified"}}, "data": [{"binder": "B1", "values": [{"measurement": "Kd", "setting": "[1]", "result": 1.3, "unit": "nM"}, {"measurement": "Kd", "setting": "[2]", "result": 0.764, "unit": "nM"}, {"measurement": "Kd", "setting": "[3]", "result": 0.805, "unit": "nM"}, {"measurement": "Kd", "setting": "[4]", "result": 0.241, "unit": "nM"}]}, {"binder": "B2", "values": [{"measurement": "binding result", "setting": "[5]", "result": "binds"}]}]}
